Assay results as given in patent USRE37781E1, “Substituted cyclic carbonyls and derivatives thereof useful as retroviral protease inhibitors” (DuPont Pharmaceuticals Company, priority 1991, dated 2002).

The molecules below were run against HIV protease (Human immunodeficiency virus type 1 group M subtype B, UniProt P04585). Conditions: not given.

Question: For `N#Cc1cccc(CN2C(=O)N(Cc3cccc(C#N)c3)[C@H](Cc3ccc(F)cc3)[C@H](O)[C@H]2CCc2ccc(F)cc2)c1`, which Ki is on record?
Answer: 10 to 1000 nM

Same assay, conditions: Table 1a

Question: With `COCCOCCOCCN1C(=O)N(CCOCCOCCOC)[C@@H](Cc2ccccc2)[C@@H](O)[C@H](O)[C@@H]1Cc1ccccc1` as the molecule, how does the Ki read?
Answer: > 1000 nM

Same assay, conditions: Table 1e

Question: Which Ki does the source give for `COCCOCO[C@@H]1C(C(F)Cc2ccccc2)N(CC2CC2)C(=O)N(CC2CC2)[C@@H]1Cc1ccccc1` (stereo partly shown) here?
Answer: > 1000 nM

Question: With `NC(=O)c1cccc(CN2C(=O)N(Cc3cccc(C(N)=O)c3)[C@H](Cc3ccc(F)c(F)c3)[C@H](O)[C@H]2CCc2ccc(F)c(F)c2)c1` as the molecule, how does the Ki read?
Answer: < 10 nM

These molecules were tested against single-chain tethered dimer of HIV protease (Human immunodeficiency virus 1, UniProt P04585). Conditions: HIV protease inhibition; class symbols.

Question: With `O=C1N(CCC23CC4CC(CC(C4)C2)C3)[C@H](Cc2ccccc2)[C@H](O)[C@@H](O)[C@@H](Cc2ccccc2)N1CCC12CC3CC(CC(C3)C1)C2` as the molecule, how does the Ki read?
Answer: 10 to 1000 nM

Same assay, conditions: read-out: HPLC K1; HIV protease inhibition, HPLC method; Table 2d

Question: `O=C1N(Cc2ccoc2)[C@H](Cc2ccccc2)[C@H](O)[C@@H](O)[C@@H](Cc2ccccc2)N1Cc1coc(C=NO)c1` was tested. Which Ki did it give?
Answer: < 10 nM

Same assay, conditions: read-out: HPLC K1; Table 2d; HIV protease inhibition, HPLC method

Question: How did the Ki turn out when `Nc1nc(-c2cccc(CN3C(=O)N(CC4CC4)[C@H](Cc4ccccc4)[C@H](O)[C@@H](O)[C@H]3Cc3ccccc3)c2)cs1` was run?
Answer: < 10 nM

Question: Which Ki does the source give for `O=C(NCCN1CCCC1)c1cccc(CN2C(=O)N(CC3CC3)[C@H](Cc3ccccc3)[C@H](O)[C@@H](O)[C@H]2Cc2ccccc2)c1` here?
Answer: < 10 nM

Question: `NNC(=O)c1cccc(CN2C(=O)N(CC3CC3)[C@H](Cc3ccccc3)[C@H](O)[C@@H](O)[C@H]2Cc2ccccc2)c1` was tested. Which Ki did it give?
Answer: < 10 nM

Question: Which Ki does the source give for `C=C(CO)CN1C(=O)N(CC(=C)CO)[C@H](Cc2ccccc2)[C@H](O)[C@@H](O)[C@H]1Cc1ccccc1` here?
Answer: > 1000 nM

Question: With `CN(C)C=CC(=O)c1cccc(CN2C(=O)N(Cc3cccc(C(=O)C=CN(C)C)c3)[C@H](Cc3ccccc3)[C@H](O)[C@@H](O)[C@H]2Cc2ccccc2)c1` as the molecule, how does the Ki read?
Answer: < 10 nM

Question: `O=C1N(Cc2cccc(-c3cc[nH]n3)c2)[C@H](Cc2ccccc2)[C@H](O)[C@@H](O)[C@@H](Cc2ccccc2)N1Cc1ccc2[nH]nnc2c1` was tested. Which Ki did it give?
Answer: < 10 nM

Question: Which Ki does the source give for `O=C1N(Cc2ccc(CO)cc2)[C@H](Cc2ccccc2)[C@H](O)[C@@H](O)[C@@H](Cc2ccccc2)N1Cc1ccc2[nH]nnc2c1` here?
Answer: < 10 nM

Question: With `C=C(CCl)CN1C(=O)N(CC(=C)CCl)[C@H](Cc2ccccc2)[C@H](O)[C@@H](O)[C@H]1Cc1ccccc1` as the molecule, how does the Ki read?
Answer: 10 to 1000 nM

Question: `Cc1ccc(S(=O)(=O)NCCCCCN2C(=O)N(CCCCCNS(=O)(=O)c3ccc(C)cc3)[C@H](Cc3ccccc3)[C@H](O)[C@@H](O)[C@H]2Cc2ccccc2)cc1` was tested. Which Ki did it give?
Answer: 10 to 1000 nM

Question: With `CN1C(=O)N(Cc2cccc(C(=O)NCCN3CCCC3)c2)[C@H](Cc2ccccc2)[C@H](O)[C@@H](O)[C@H]1Cc1ccccc1` as the molecule, how does the Ki read?
Answer: 10 to 1000 nM

Question: Which Ki does the source give for `Nc1nc(-c2cccc(CN3C(=O)N(Cc4cccc(-c5csc(N)n5)c4)[C@H](Cc4ccccc4)[C@H](O)[C@@H](O)[C@H]3Cc3ccccc3)c2)cs1` here?
Answer: < 10 nM

Same assay, conditions: read-out: HPLC K1; Table 2d; HIV protease inhibition, HPLC method; tested form: HCl

Question: How did the Ki turn out when `O=C1N[C@H](Cc2ccccc2)[C@H](O)[C@@H](O)[C@@H](Cc2ccccc2)N1Cc1cccc(-c2cc[nH]n2)c1` was run?
Answer: < 10 nM

Same assay, conditions: read-out: HPLC K1; Table 2d; class symbols

Question: With `O=C(NO)c1cccc(CN2C(=O)N(Cc3cccc(C(=O)NO)c3)[C@H](Cc3ccccc3)[C@H](O)[C@@H](O)[C@H]2Cc2ccccc2)c1` as the molecule, how does the Ki read?
Answer: < 10 nM

Question: How did the Ki turn out when `O=C(NC12CC3CC(CC(C3)C1)C2)Oc1cccc(CN2C(=O)N(Cc3cccc(OC(=O)NC45CC6CC(CC(C6)C4)C5)c3)[C@H](Cc3ccccc3)[C@H](O)[C@@H](O)[C@H]2Cc2ccccc2)c1` was run?
Answer: > 1000 nM

Question: With `C[C@H](NC(=O)OCc1ccccc1)C(=O)Nc1cccc(CN2C(=O)N(Cc3cccc(NC(=O)[C@H](C)NC(=O)OCc4ccccc4)c3)[C@H](Cc3ccccc3)[C@H](O)[C@@H](O)[C@H]2Cc2ccccc2)c1` as the molecule, how does the Ki read?
Answer: < 10 nM

Question: For `CNC(=O)OCCCCCCN1C(=O)N(CCCCCCO)[C@H](Cc2ccccc2)[C@H](O)[C@@H](O)[C@H]1Cc1ccccc1`, which Ki is on record?
Answer: < 10 nM

Question: Which Ki does the source give for `O=C1N(Cc2ccc3cnccc3c2)[C@H](Cc2ccccc2)[C@H](O)[C@@H](O)[C@@H](Cc2ccccc2)N1Cc1ccc2cnccc2c1` here?
Answer: 10 to 1000 nM

What follows are molecules tested on HIV-1 (RF) in MT-2 cells. Conditions: HIV RNA assay, HIV-1 infected MT-2 cells; Table 2d.

Question: How did the IC90 turn out when `O=C1N(Cc2ccoc2)[C@H](Cc2ccccc2)[C@H](O)[C@@H](O)[C@@H](Cc2ccccc2)N1Cc1coc(C=NO)c1` was run?
Answer: +++ (+++=<10 μg/mL)

Same assay, conditions: Table 1e

Question: Which IC90 does the source give for `COCCOCO[C@@H]1C(C(F)Cc2ccccc2)N(CC2CC2)C(=O)N(CC2CC2)[C@@H]1Cc1ccccc1` (stereo partly shown) here?
Answer: ++ (++=10 to 100 μg/mL)

Question: How did the IC90 turn out when `N#Cc1cccc(CN2C(=O)N(Cc3cccc(C#N)c3)[C@H](Cc3ccc(F)cc3)[C@H](O)[C@H]2CCc2ccc(F)cc2)c1` was run?
Answer: +++ (+++=<10 μg/mL)

Question: How did the IC90 turn out when `NC(=O)c1cccc(CN2C(=O)N(Cc3cccc(C(N)=O)c3)[C@H](Cc3ccc(F)c(F)c3)[C@H](O)[C@H]2CCc2ccc(F)c(F)c2)c1` was run?
Answer: +++ (+++=<10 μg/mL)

Same assay, conditions: Table 2d; HIV RNA assay

Question: `Nc1nc(-c2cccc(CN3C(=O)N(CC4CC4)[C@H](Cc4ccccc4)[C@H](O)[C@@H](O)[C@H]3Cc3ccccc3)c2)cs1` was tested. Which IC90 did it give?
Answer: +++ (+++=<10 μg/mL)

Question: For `O=C(NCCN1CCCC1)c1cccc(CN2C(=O)N(CC3CC3)[C@H](Cc3ccccc3)[C@H](O)[C@@H](O)[C@H]2Cc2ccccc2)c1`, which IC90 is on record?
Answer: +++ (+++=<10 μg/mL)

Question: `NNC(=O)c1cccc(CN2C(=O)N(CC3CC3)[C@H](Cc3ccccc3)[C@H](O)[C@@H](O)[C@H]2Cc2ccccc2)c1` was tested. Which IC90 did it give?
Answer: +++ (+++=<10 μg/mL)

Question: For `CN(C)C=CC(=O)c1cccc(CN2C(=O)N(Cc3cccc(C(=O)C=CN(C)C)c3)[C@H](Cc3ccccc3)[C@H](O)[C@@H](O)[C@H]2Cc2ccccc2)c1`, which IC90 is on record?
Answer: +++ (+++=<10 μg/mL)

Question: With `O=C1N(Cc2cccc(-c3cc[nH]n3)c2)[C@H](Cc2ccccc2)[C@H](O)[C@@H](O)[C@@H](Cc2ccccc2)N1Cc1ccc2[nH]nnc2c1` as the molecule, how does the IC90 read?
Answer: +++ (+++=<10 μg/mL)

Question: For `O=C1N(Cc2ccc(CO)cc2)[C@H](Cc2ccccc2)[C@H](O)[C@@H](O)[C@@H](Cc2ccccc2)N1Cc1ccc2[nH]nnc2c1`, which IC90 is on record?
Answer: +++ (+++=<10 μg/mL)

Question: With `C=C(CCl)CN1C(=O)N(CC(=C)CCl)[C@H](Cc2ccccc2)[C@H](O)[C@@H](O)[C@H]1Cc1ccccc1` as the molecule, how does the IC90 read?
Answer: ++ (++=10 to 100 μg/mL)

Question: `Cc1ccc(S(=O)(=O)NCCCCCN2C(=O)N(CCCCCNS(=O)(=O)c3ccc(C)cc3)[C@H](Cc3ccccc3)[C@H](O)[C@@H](O)[C@H]2Cc2ccccc2)cc1` was tested. Which IC90 did it give?
Answer: ++/+ (The ++/+ is used in the cases where an IC90 was determined to be >50 μg/mL)

Question: `Nc1nc(-c2cccc(CN3C(=O)N(Cc4cccc(-c5csc(N)n5)c4)[C@H](Cc4ccccc4)[C@H](O)[C@@H](O)[C@H]3Cc3ccccc3)c2)cs1` was tested. Which IC90 did it give?
Answer: +++ (+++=<10 μg/mL)

Same assay, conditions: Table 2d; HIV RNA assay; tested form: HCl

Question: `O=C1N[C@H](Cc2ccccc2)[C@H](O)[C@@H](O)[C@@H](Cc2ccccc2)N1Cc1cccc(-c2cc[nH]n2)c1` was tested. Which IC90 did it give?
Answer: +++ (+++=<10 μg/mL)

Same assay, conditions: Table 2d; class symbols

Question: Which IC90 does the source give for `O=C(NO)c1cccc(CN2C(=O)N(Cc3cccc(C(=O)NO)c3)[C@H](Cc3ccccc3)[C@H](O)[C@@H](O)[C@H]2Cc2ccccc2)c1` here?
Answer: + (+=>100 μg/mL)

Question: For `O=C(NC12CC3CC(CC(C3)C1)C2)Oc1cccc(CN2C(=O)N(Cc3cccc(OC(=O)NC45CC6CC(CC(C6)C4)C5)c3)[C@H](Cc3ccccc3)[C@H](O)[C@@H](O)[C@H]2Cc2ccccc2)c1`, which IC90 is on record?
Answer: +++ (+++=<10 μg/mL)

Question: `O=C1N(Cc2ccc3cnccc3c2)[C@H](Cc2ccccc2)[C@H](O)[C@@H](O)[C@@H](Cc2ccccc2)N1Cc1ccc2cnccc2c1` was tested. Which IC90 did it give?
Answer: + (+=>100 μg/mL)
